Measured values from several laboratories, pooled; numbers as filed in NIAID ChemDB.

All rows: growth or infection tests; species: Mycobacterium tuberculosis

Lines come from different laboratories, so protocols vary.

{"smiles": "O=C(NNCc1cccc(F)c1)c1ccncc1", "strain": "H37Rv", "endpoint": "MIC", "result": "0.39 µg/mL"}
{"smiles": "Cc1ccc2oc(=O)n(-c3ccc(Cl)cc3)c(=S)c2c1", "setting": "21 d", "strain": "My 331/88", "endpoint": "MIC", "result": "0.5 µM"}
{"smiles": "C/C(=N\\NC(=O)c1ccncc1)c1ccccc1", "strain": "H37Rv (rifampin-resistant)", "endpoint": "MIC", "result": "2 µg/mL"}
{"smiles": "CCOC(=O)c1ccc2nc(-c3ccc(O)cc3O)[nH]c2c1", "strain": "H37Rv", "endpoint": "EC90", "method": "resazurin / fluorescence", "result": ">100 µM"}
{"smiles": "COc1ccc2oc(=S)n(-c3cccc(Cl)c3)c(=S)c2c1", "setting": "21 d", "strain": "My 331/88", "endpoint": "MIC", "result": "32 µM"}
{"smiles": "C[C@H]1COc2c(N3CCN(C)CC3)c(F)cc3c(=O)c(C(=O)O)cn1c23", "strain": "7R", "endpoint": "MIC", "result": "0.5 µg/mL"}
{"smiles": "CCOC(=O)c1ccc2c(c1)nc(-c1ccc(O)cc1O)n2CCN1CCCC1=O", "strain": "H37Rv", "endpoint": "MIC", "method": "resazurin / fluorescence", "result": ">100 µM"}
{"smiles": "CN[C@@H]1[C@H](O[C@H]2[C@H](O[C@H]3[C@H](O)[C@@H](O)[C@H](N=C(N)N)[C@@H](O)[C@@H]3N=C(N)N)O[C@@H](C)[C@]2(O)C=O)O[C@@H](CO)[C@H](O)[C@H]1O", "strain": "84396", "endpoint": "MIC", "result": "≥2 µg/mL"}
{"smiles": "CCOC(=O)Nc1cc2[nH]c(-c3ccc(C(F)(F)F)cc3)nc2c(N(CCc2ccccc2)Cc2ccccc2)n1", "strain": "H37Rv", "endpoint": "EC50", "result": "<12.5 µg/mL"}
{"smiles": "NNC(=O)c1ccncc1", "strain": "38396", "endpoint": "MIC", "result": "<0.2 µg/mL"}
{"smiles": "O=[N+]([O-])c1cn2c(n1)OC[C@@H](OCc1ccnc(N3CCN(c4ccc(C(F)(F)F)cn4)CC3)c1)C2", "endpoint": "MIC90", "method": "low oxygen", "result": "4.8 µM"}
{"smiles": "NC(=O)c1cnccn1", "strain": "Isolate 11830", "endpoint": "MIC", "result": "100 µg/mL"}
{"smiles": "CCc1ccc([C@H]2C[C@@H](C(F)(F)F)n3ncc(C(=O)NCc4ccc5c(c4)OCO5)c3N2)cc1", "changes": "MmpL3: Ala677Val", "strain": "H37Rv", "endpoint": "fold resistance", "method": "fluorescence", "result": "11.3"}
{"smiles": "NNC(=O)c1ccncc1", "strain": "Strain 448", "endpoint": "MIC", "result": "8 µg/mL"}
{"smiles": "CCOC(=O)Nc1cc(NCCc2ccc(S(N)(=O)=O)cc2)c2nccnc2n1", "dose": "12.5 µg/mL", "strain": "H37Rv", "endpoint": "inhibition", "result": "0%"}
{"smiles": "CCCCCCCCCN1C(=O)CC(NCCCCCCCC)C1=O", "strain": "H37Rv", "endpoint": "MIC", "result": "≤20 µg/mL"}
{"smiles": "O=c1oc2ccc(F)cc2c(=S)n1-c1ccccc1", "setting": "14 d", "strain": "My 331/88", "endpoint": "MIC", "result": "2 µM"}
{"smiles": "CCOC(=O)Nc1cc2c(cn1)N=C(CN(C)c1ccc(OC)cc1)CN2", "dose": "12.5 µg/mL", "strain": "H37Rv", "endpoint": "inhibition", "result": "20%"}
{"smiles": "O=C(NNCc1ccccc1F)c1ccncc1", "strain": "H37Rv (rifampin-resistant)", "endpoint": "MIC", "result": "1.95 µg/mL"}
{"smiles": "O=c1c2c3c(sc2nc2n1N=C(c1ccc(Br)cc1)CS2)CCCC3", "dose": "6.25 µg/mL", "strain": "H37Rv", "endpoint": "inhibition", "method": "resazurin", "result": "22%"}
{"smiles": "O=C(NNCc1cccc(C(F)(F)F)c1)c1ccncc1", "strain": "Ethionamide-resistant", "endpoint": "MIC", "result": ">6.25 µg/mL"}
{"smiles": "CCOC(=O)c1ccc2nc(-c3ccc(C(F)(F)F)cc3)[nH]c2c1", "strain": "H37Rv", "endpoint": "MIC", "method": "resazurin / fluorescence", "result": ">100 µM"}
{"smiles": "CO[C@H]1/C=C/O[C@@]2(C)Oc3c(C)c(O)c4c(O)c(c(/C=N/N5CCN(C6CCCC6)CC5)c(O)c4c3C2=O)NC(=O)/C(C)=C\\C=C\\[C@H](C)[C@H](O)[C@@H](C)[C@@H](O)[C@@H](C)[C@H](OC(C)=O)[C@@H]1C", "strain": "H37Ra", "endpoint": "Median MIC", "result": "0.003 µg/mL"}
{"smiles": "CCOC(=O)Nc1cc(NC)c([N+](=O)[O-])c(N)n1", "dose": "12.5 µg/mL", "strain": "H37Rv", "endpoint": "inhibition", "result": "0%"}
{"smiles": "O=[N+]([O-])c1cn2c(n1)OC[C@@H](OCc1ccc(S(=O)(=O)NCc3ccc(OC(F)(F)F)cc3)cc1)C2", "endpoint": "MIC90", "method": "low oxygen", "result": "9.5 µM"}
{"smiles": "CC(NNC(=O)c1ccncc1)c1ccc(Cl)c(Cl)c1", "strain": "Isoniazid-resistant", "endpoint": "MBC", "result": ">50 µg/mL"}
{"smiles": "CCOC(=O)c1ccc2c(c1)nc(-c1ccc3c(c1)OCO3)n2CCN1CCCOC1", "strain": "H37Rv", "endpoint": "EC50", "method": "resazurin / fluorescence", "result": ">100 µM"}
{"smiles": "COc1ccc2oc(=S)n(-c3ccc(C)cc3)c(=S)c2c1", "setting": "14 d", "strain": "My 331/88", "endpoint": "MIC", "result": "8 µM"}
{"smiles": "CCCCCCCCCN1C(=O)CC(SCCNC(=O)c2ccc(C)cc2)C1=O", "strain": "H37Ra", "endpoint": "MIC", "result": "≤20 µg/mL"}
{"smiles": "O=[N+]([O-])c1cn2c(n1)OC[C@@H](OCc1ccc(-c3ccc(Oc4ccc(C(F)(F)F)cc4)cc3)cc1)C2", "endpoint": "MIC90", "method": "low oxygen", "result": "4.7 µM"}
{"smiles": "O=C(N/N=C/c1cccc(F)c1)c1ccncc1", "strain": "H37Rv (kanamycin-resistant)", "endpoint": "MIC", "result": "≤2 µg/mL"}
{"smiles": "CCOC(=O)c1ccc2c(c1)nc(-c1ccc(N3CCOCC3)cc1)n2CCN1CCCOC1", "strain": "H37Rv", "endpoint": "EC50", "method": "resazurin / fluorescence", "result": ">100 µM"}
{"smiles": "CC(=O)NC[C@H]1CN(c2ccc(N3CCOCC3)c(F)c2)C(=O)O1", "strain": "10S", "endpoint": "MIC", "result": "0.25 µg/mL"}
{"smiles": "CCCCCCCCCN1C(=O)CC(NC(C)CCN(CC)CC)C1=O", "strain": "Clinical isolate (isoniazid-resistant)", "endpoint": "MIC", "result": "≤20 µg/mL"}
{"smiles": "CC(=O)O[C@H]1C[C@@]2(C)[C@@H](C[C@@H](O)[C@H]3[C@@]4(C)CC[C@@H](O)[C@@H](C)[C@@H]4CC[C@@]32C)/C1=C(\\CCC=C(C)C)C(=O)O", "strain": "H37Rv", "endpoint": "Median MIC", "result": "8 µg/mL"}
{"smiles": "CCOC(=O)c1ccc2c(c1)nc(-c1ccc(O)c(OC)c1)n2CCN1CCCC1=O", "strain": "H37Rv", "endpoint": "EC50", "method": "resazurin / fluorescence", "result": ">100 µM"}
{"smiles": "CO[C@H]1/C=C/O[C@@]2(C)Oc3c(C)c(O)c4c(O)c(c5c(c4c3C2=O)NC2(CCN(CC(C)C)CC2)N=5)=NC(=O)/C(C)=C\\C=C\\[C@H](C)[C@H](O)[C@@H](C)[C@@H](O)[C@@H](C)[C@H](OC(C)=O)[C@@H]1C", "strain": "Strain 163 (D516Y)", "endpoint": "MIC", "result": "0.25 µg/mL"}
{"smiles": "NCC[C@H](O)C(=O)N[C@@H]1C[C@H](N)[C@@H](O[C@H]2O[C@H](CN)[C@@H](O)[C@H](O)[C@H]2O)[C@H](O)[C@H]1O[C@H]1O[C@H](CO)[C@@H](O)[C@H](N)[C@H]1O", "strain": "H37Rv", "endpoint": "Mean MIC", "result": "0.59 µg/mL"}
{"smiles": "C/C(=N\\NC(=O)c1ccncc1)c1ccc(F)cc1", "strain": "H37Rv", "endpoint": "MBC", "result": "0.2 µg/mL"}
{"smiles": "C[C@@H]1CN(c2c(F)c(N)c3c(=O)c(C(=O)O)cn(C4CC4)c3c2F)C[C@H](C)N1", "strain": "H37Rv", "endpoint": "Mean MIC", "result": "0.15 µg/mL"}
{"smiles": "C=C1CC(=O)N(CCCCCCCC)C1=O", "strain": "Clinical isolate (isoniazid-resistant)", "endpoint": "MIC", "result": "≤20 µg/mL"}
{"smiles": "CC(C)N=c1cc2n(-c3ccc(Cl)cc3)c3ccccc3nc-2cc1Nc1ccc(Cl)cc1", "strain": "MDR24", "endpoint": "MIC", "method": "broth dilution / resazurin", "result": "0.25 µg/mL"}
{"smiles": "CO[C@H]1/C=C/O[C@@]2(C)Oc3c(C)c(O)c4c(O)c(c(/C=N/N5CCN(C)CC5)c(O)c4c3C2=O)NC(=O)/C(C)=C\\C=C\\[C@H](C)[C@H](O)[C@@H](C)[C@@H](O)[C@@H](C)[C@H](OC(C)=O)[C@@H]1C", "strain": "PR455", "endpoint": "MIC", "result": "0.16 µg/mL"}
{"smiles": "CCOC(=O)c1ccc2c(c1)nc(-c1ccc(C(=O)O)cc1)n2CCN1CCCOC1", "strain": "H37Rv", "endpoint": "MIC", "method": "resazurin / fluorescence", "result": ">100 µM"}
{"smiles": "Nc1ccc(C(=O)O)c(O)c1", "strain": "H37Ra", "endpoint": "Mean MIC", "result": "1.34 µg/mL"}
{"smiles": "CN(Cc1ccc(CO[C@@H]2COc3nc([N+](=O)[O-])cn3C2)cc1)Cc1ccc(OC(F)(F)F)cc1", "endpoint": "MIC90", "method": "low oxygen", "result": "2.7 µM"}
{"smiles": "CCc1nc(N)nc(N)c1-c1ccc(Cl)cc1", "strain": "H37Rv", "endpoint": "EC90", "method": "resazurin / fluorescence", "result": ">100 µM"}
{"smiles": "O=C(NNCc1ccccc1)c1ccncc1", "strain": "Isoniazid-resistant", "endpoint": "MIC", "result": ">6.25 µg/mL"}
{"smiles": "NNC(=O)c1ccncc1", "strain": "H37Rv", "endpoint": "Mean MIC", "result": "0.031 µg/mL"}
{"smiles": "O=[N+]([O-])c1cn2c(n1)OC[C@@H](OCc1ccc(-c3ccc(Oc4ccc(F)cc4)nc3)cc1)C2", "endpoint": "MIC90", "method": "low oxygen", "result": "0.8 µM"}
{"smiles": "CCOC(=O)Nc1ccc(N=Cc2ccccc2)cn1", "strain": "H37Rv", "endpoint": "EC50", "result": ">12.5 µg/mL"}
{"smiles": "CC(=O)NC[C@H]1CN(c2ccc(N3CCOCC3)c(F)c2)C(=O)O1", "strain": "Strain 474", "endpoint": "MIC", "result": "0.25 µg/mL"}
{"smiles": "CC(NNC(=O)c1ccncc1)c1ccc(F)cc1", "strain": "H37Rv (rifampin-resistant)", "endpoint": "MIC", "result": "1.96 µg/mL"}

A second listing of 5 rows from above:

smiles,setting,dose,changes,strain,endpoint,method,result
CCOC(=O)Nc1cc(NC)c([N+](=O)[O-])c(N)n1,-,12.5 µg/mL,-,H37Rv,inhibition,-,0%
CC(=O)NC[C@H]1CN(c2ccc(N3CCOCC3)c(F)c2)C(=O)O1,-,-,-,Strain 474,MIC,-,0.25 µg/mL
CCOC(=O)c1ccc2nc(-c3ccc(O)cc3O)[nH]c2c1,-,-,-,H37Rv,EC90,resazurin / fluorescence,>100 µM
CCOC(=O)Nc1cc(NCCc2ccc(S(N)(=O)=O)cc2)c2nccnc2n1,-,12.5 µg/mL,-,H37Rv,inhibition,-,0%
O=[N+]([O-])c1cn2c(n1)OC[C@@H](OCc1ccnc(N3CCN(c4ccc(C(F)(F)F)cn4)CC3)c1)C2,-,-,-,-,MIC90,low oxygen,4.8 µM

Percent inhibition refers to the dose given; in toxicity tests it is the harm to the cells. Blank or dashed fields: not listed here. ECn: concentration that inhibits the pathogen or its effect by n%. A number after MIC or MFC names an inhibition level or a share of isolates. Fold resistance has wild type as its base.